System: α-hemolysin production in Staphylococcus aureus
Test: Inhibition of hemolysin production, sheep blood hemolytic assay
Assay type: cell-based

Structure (SMILES): Oc1cc(C(c2c[nH]c3ccccc23)c2c[nH]c3ccccc23)cc(O)c1O [SP-BIM 13, 5-(di(1H-indol-3-yl)methyl)benzene-1,2,3-triol]
- hemolysin production in S. aureus cells: inhibits hemolysin production
